# Test results published in PubChem BioAssay AID504884 (Broad Institute, 2011).
# Only a part is listed here, and it is no random draw. Calls of active or inactive are those of the source. No stated cut-off is given here; in the data, active means activity above about 50% (passing the limit was not always enough); inconclusive means no clear call, values can overlap the other calls.
# System: DNA topoisomerase I (Yersinia pestis CO92)
# Assay: Yersinia pestis topoisomerase I inhibitors, primary screen, biochemical, cleavage product accumulation, plate reader, single point (AID 504884)
# Settings: Y. pestis Topo-I cleavage product accumulation, at 10 µM, stronger effect = higher value
row,Structure (SMILES),activity
1,O=C(NCC1(N2CCOCC2)CCCCC1)c1cc(Br)ccc1Cl,inactive: -4.75%
2,COc1cc(C(=O)NCC2(N3CCOCC3)CCCCC2)cc(OC)c1C,inactive: -0.579%
3,COc1ccc(C(=O)NCC2(N3CCOCC3)CCCCC2)cc1OC,inactive: 26.8%
4,N/C(=N\O)c1c(N)no[n+]1[O-],inactive: -5.63%
5,CCOC(=O)N1CCC(Nc2ccc(C)cc2)CC1,inactive: 9.52%
6,O=C(OC1CN2CCC1CC2)C1c2ccccc2C=Cc2ccccc21 (stereo not given),inactive: 2.2%
7,CC(C)(C)OC(=O)N1CCC(N(C(=O)c2ccccc2)c2ccc(Cl)cc2)CC1,inactive: 12.1%
8,N#Cc1ccc(C(=O)NCC2(N3CCCCC3)CCCCC2)cc1,inactive: -1.02%
9,Cc1cc(N(CCCl)CCCl)ccc1C=O,inactive: 4.34%
10,CCCN1CCC(Nc2cc(OC)cc(OC)c2)CC1,inactive: 2.91%
11,c1ccc(CN2CCC(Nc3ccccc3)CC2)cc1,inactive: 0.125%
12,CN(C)C1(CNC(=O)c2cccc(C#N)c2)CCCCC1,inactive: -1.77%
13,COc1cc(OC)cc(C(=O)NCC2(N3CCCCC3)CCCCC2)c1,inactive: 3.96%
14,CC(=O)N(c1ccccc1)C1CCNCC1,inactive: 6.78%
15,Cc1ccc(NC2(C#N)CCN(Cc3ccccc3)CC2)cc1,inactive: -4.39%
16,Fc1ccccc1NC1CCN(Cc2ccccc2)CC1,inactive: 6.51%
17,Cc1ccc(C(=O)NCC2(N3CCCCC3)CCCCC2)o1,inactive: 1.56%
18,CCN1CCC(Nc2cccc(F)c2)CC1,inactive: -0.309%
19,Cc1ccccc1NC1(C#N)CCN(Cc2ccccc2)CC1,inactive: 3.45%
20,CN(C)c1ccc(C(=O)NCC2(N3CCCCC3)CCCCC2)cc1,inactive: 15%
21,Cn1c(=O)[nH]cc(N(CCCl)CCCl)c1=O,inactive: 3.03%
22,O=C(NCC1(N2CCCCC2)CCCCC1)c1ccco1,inactive: -0.193%
23,CN1CCC(Nc2ccc(F)c(Cl)c2)CC1,inactive: -5.15%
24,CCOc1ncccc1C(=O)NCC1(N2CCOCC2)CCCCC1,inactive: 17.5%
25,CCCOc1ccc(C(=O)NCC2(N(C)C)CCCCC2)cc1,inactive: 0.655%

row,Structure (SMILES),activity
1,O=C(O)C1(Nc2ccccc2)CCN(Cc2ccccc2)CC1,inactive: 4.69%
2,CC(C)(C)OC(=O)N1CCC(Nc2ccccc2)CC1,inactive: 2.53%
3,CCC(CO)(C(=O)OC1CN2CCC1CC2)c1ccccc1 (stereo not given),inactive: -2.46%
4,COc1cccc(C(=O)N(c2cc(C)cc(C)c2)C2CCN(C(=O)OC(C)(C)C)CC2)c1,inactive: 1.15%
5,COc1cc(OC)cc(C(=O)NCC2(N3CCOCC3)CCCCC2)c1,inactive: 13.3%
6,CN1CCC(Nc2ccc(Cl)cc2)CC1,inactive: -1.22%
7,O=C(NCC1(N2CCCCC2)CCCCC1)c1cccs1,inactive: 3.16%
8,O=C(NCC1(N2CCCCC2)CCCCC1)c1ccc(=O)[nH]c1,inactive: -3.46%
9,CC(C)(C)OC(=O)N1CCC(N(C(=O)c2ccccc2)c2ccc(F)cc2)CC1,inactive: 27.3%
10,COc1ccc(C(=O)NCC2(N3CCCCC3)CCCCC2)c(OC)c1OC,inactive: 0.901%
11,COc1ccc(C(=O)NCC2(N3CCCCC3)CCCCC2)cc1,inactive: 6.58%
12,Cc1cccc(NC2(C#N)CCN(Cc3ccccc3)CC2)c1,inactive: 12.5%
13,CSc1ccccc1C(=O)NCC1(N2CCCCC2)CCCCC1,inactive: 22%
14,O=C(NCC1(N2CCOCC2)CCCCC1)c1cc2ccccc2o1,inactive: -1.67%
15,Cc1cc(C)cc(N(C(=O)c2ccccc2)C2CCN(C(=O)OC(C)(C)C)CC2)c1,inactive: 38.6%
16,O=C(NCC1(N2CCCCC2)CCCCC1)c1ccc(Cl)nc1,inactive: 2.41%
17,CCOC(=O)N1CCC(Nc2ccc(OC)cc2)CC1,inactive: -8.85%
18,COc1ccc(Cl)cc1C(=O)NCC1(N2CCOCC2)CCCCC1,inactive: 18.4%
19,N#CC1(Nc2ccccc2)CCN(Cc2ccccc2)CC1,inactive: 4.19%
20,O=C(NCC1(N2CCCCC2)CCCCC1)c1ccc(Cl)s1,inactive: 1.52%
21,O=C(OC1CN2CCC1CC2)C1c2ccccc2Oc2ccccc21 (stereo not given),inactive: 10.1%
22,CCOc1ccc(C)cc1CN(CCCl)CCCl,inactive: -4.66%
23,O=C1CCN(Cc2ccccc2)CC1,inactive: 12.1%
24,CCOC(=O)N1CCC(Nc2ccc(F)cc2)CC1,inactive: 2.24%
25,COc1ccc(NC2CCN(CCc3ccccc3)CC2)c(OC)c1,inactive: 10%

row,Structure (SMILES),activity
1,CCCCOc1ccc(C(=O)NCC2(N3CCOCC3)CCCCC2)cc1,inactive: 4.54%
2,O=P1(N(CCCl)CCCl)SCCCS1,inactive: 3.05%
3,O=C(NCC1(N2CCCCC2)CCCCC1)c1ccc(F)cc1,inactive: -5.83%
4,CCOC(=O)N1CCC(Nc2cccc(C)c2)CC1,inactive: -3.03%
5,COc1cc(C(=O)NCC2(N(C)C)CCCCC2)ccc1OC(F)F,inactive: -4.89%
6,O=C(NCC1(N2CCCCC2)CCCCC1)c1ccc(OC(F)F)cc1,inactive: 6.09%
7,CSc1ccc(C(=O)NCC2(N3CCOCC3)CCCCC2)cc1,inactive: 6.94%
8,O=C(NCC1(N2CCCCC2)CCCCC1)c1cccc([N+](=O)[O-])c1,inactive: 0.23%
9,N#CC1(Nc2ccccc2)CCN(CCc2ccccc2)CC1,inactive: 4.8%
10,CCN1CCC(Nc2ccc(Cl)cc2)CC1,inactive: 0.425%
11,O=C(NCC1(N2CCCCC2)CCCCC1)c1cccc(C(F)(F)F)c1,inactive: -6.53%
12,CC(C)c1ccc(C(=O)NCC2(N3CCOCC3)CCCCC2)cc1,inactive: 14.9%
13,COc1ccc(NC2CCN(C(=O)OC(C)(C)C)CC2)cc1,inactive: -2.36%
14,CN1CCN(CCOC(=O)C(O)(c2ccccc2)c2ccccc2)CC1,inactive: -7.51%
15,O=C(NCC1(N2CCOCC2)CCCCC1)c1cc(=O)[nH]c2ccccc12,inactive: 7.91%
16,COc1cc(C(=O)NCC2(N3CCCCC3)CCCCC2)ccc1OC(F)F,inactive: -12.6%
17,CN(C)c1cccc(C(=O)NCC2(N3CCCCC3)CCCCC2)c1,inactive: 1.07%
18,COc1ccc(CN(CCCl)CCCl)cc1Cl,inactive: 2.76%
19,CC(C)c1ccc(NC2CCN(C(=O)OC(C)(C)C)CC2)cc1,inactive: 7.44%
20,O=C(NCC1(N2CCOCC2)CCCCC1)c1cc(F)c(F)cc1Cl,inactive: -2.47%
21,COc1cc(OC)c(C(=O)NCC2(N(C)C)CCCCC2)cc1OC,inactive: 4.32%
22,CN1CCC(Nc2cccc(F)c2)CC1,inactive: 0.188%
23,O=C(NCC1(N2CCCCC2)CCCCC1)c1cncc(Br)c1,inactive: -10.3%
24,CCCOc1ccc(C(=O)NCC2(N(C)C)CCCCC2)cc1OC,inactive: -0.125%
25,Cc1ccc(C(=O)NCC2(N(C)C)CCCCC2)o1,inactive: -0.314%
